# In patent publication US7473790B2 (Pfizer Inc., priority 2003, dated 2009):
# Amino acid sequences for entries named in this document (tags omitted). Residues count along the entry.
# UniProt P26663, 2420-3010 limits assumed: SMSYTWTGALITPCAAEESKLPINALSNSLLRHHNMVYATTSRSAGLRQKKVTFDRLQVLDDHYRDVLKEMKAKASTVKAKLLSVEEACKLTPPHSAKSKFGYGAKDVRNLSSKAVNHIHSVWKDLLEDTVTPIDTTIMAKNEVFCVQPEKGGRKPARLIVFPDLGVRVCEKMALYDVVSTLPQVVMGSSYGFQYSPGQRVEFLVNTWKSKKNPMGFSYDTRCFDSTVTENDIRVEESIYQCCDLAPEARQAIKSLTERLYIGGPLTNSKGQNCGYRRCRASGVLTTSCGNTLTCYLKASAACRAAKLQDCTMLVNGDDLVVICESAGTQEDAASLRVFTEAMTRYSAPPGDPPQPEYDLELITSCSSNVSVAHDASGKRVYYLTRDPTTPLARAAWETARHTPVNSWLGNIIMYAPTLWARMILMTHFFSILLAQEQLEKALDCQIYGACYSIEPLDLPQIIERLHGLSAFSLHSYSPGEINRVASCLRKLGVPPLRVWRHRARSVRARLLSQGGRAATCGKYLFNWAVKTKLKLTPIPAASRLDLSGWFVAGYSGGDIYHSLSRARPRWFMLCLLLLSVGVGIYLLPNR
# Target: HCV polymerase (Hepatitis C virus genotype 1b, UniProt P26663)
# Test: HCV polymerase primer/template-directed transcription assay (32P-GTP incorporation, filter binding)
# Type: biochemical
# Settings: recombinant HCV polymerase; 30 minutes at 30° C.; concentration giving 50% inhibition of polymerase-directed transcription
# Method: The compounds described herein were tested for activity with HCV polymerase. Recombinant HCV polymerase was tested for its ability to perform primer/template-directed transcription in assays that contained 30 mM tris-HCl pH 7.2, 10 mM MgCl2, 20 mM NaCl, 1 mM Dithiothreitol (DTT), 0.05% Tween-20, 1% glycerol, 5 pmoles biotin-dG12 (primer), 0.5 pmoles poly(rC)300 (template), 1 μM GTP, 0.1-0.3 uCi α-^32P-GTP, and 2.5 pmoles (0.15 μg) HCV polymerase protein in a final volume of 75 μL. Reactions were initiated by addition of enzyme and incubated 30 minutes at 30° C. Reactions were stopped by addition of 33 mM EDTA, and polynucleotide products were collected by filtration through Diethylaminoethyl (DE) Filtermat papers (Wallac). Unincorporated triphosphate was removed by washing the filters with 5% dibasic sodium phosphate. The filters were counted in a Packard Tri-Lux Microbeta scintillation counter (Packard Bioscience, Meriden, Conn.). Compounds to be tested were added at various concentrations, e.g., 1 μm to 50 μm, from stocks in 10% DMSO-water (final DMSO is 1% in reaction).
# IC50 values were estimated from the primary cpm data (collected in triplicate) using the formula: cpm (I)=cpm(no inhibitor)(1−([I]/([I]+IC50))). An IC50 value represents the concentration (in μM) of a compound that provides 50% inhibition of polymerase-directed transcription in the above assay. A percent inhibition value is expressed for a compound where it was impractical to calculate an IC50 value with available data. If the IC50 estimated by the above equation was less than 200 nM, it was recalculated using the following equation, which takes into account the enzyme concentration (30 nM) in the assay: cpm(I)=cpm(no inhibitor)(1−((((I+IC50+30e−9)−sqrt(((I+IC50+30e−9)^2)−4×30e−9×I)))/((2)(30e−9))). Curve fitting was performed using the program KaleidaGraph (Synergy Software, Reading, Pa.).
row,SMILES,IC50
1,O=C1CC(=O)OC(CCc2ccc3c(c2)CCO3)(C2CCCC2)C1 (centres unmarked),6.8 µM
2,CCc1cc(CCC2(C3CCCC3)CC(=O)CC(=O)O2)c(F)cc1OCOCCOC (centres unmarked),1.3 µM
3,CCc1ccc(OCOCCOC)c(CCC2(C3CCCC3)CC(=O)CC(=O)O2)c1 (centres unmarked),0.32 µM
4,COc1ccc(CCC2(C3CCCC3)CC(O)=C(Oc3ccccc3)C(=O)O2)cc1Cl (centres unmarked),0.54 µM
5,CCc1ccc(OCc2ccccc2)c(CCC2(C3CCCC3)CC(=O)CC(=O)O2)c1 (centres unmarked),2.3 µM
6,Cc1cc(C)n2nc(CC3=C(O)CC(CCc4ccc5c(c4)CCO5)(C4CCCC4)OC3=O)nc2n1 (centres unmarked),0.054 µM
7,CCc1cc(CCC2(C3CCCC3)CC(=O)CC(=O)O2)c(C)cc1OCOCCOC (centres unmarked),1.5 µM
8,COc1ccc(CCC2(C3CCCC3)CC(O)=C(N(C)c3ccccc3)C(=O)O2)cc1Cl (centres unmarked),0.41 µM
